A mixed list of measured activities; the numbers were collected in NIAID ChemDB.

Common to all: tests in culture; organism: Varicella zoster virus; cell line: HEL; measure: EC50

ECn: concentration that inhibits the pathogen or its effect by n%. Neighbouring rows are from separate reports. Blank or dashed fields: not listed here.

structure,strain,read by,result
O=c1[nH]c(=O)n([C@@H]2C[C@H](CO)C[C@H]2CO)cc1I,YS/R (TK-),-,>100 µg/mL
OC[C@H]1O[C@H](c2cc(F)c(F)cc2F)C[C@@H]1O,TK+/YS,plaque count,>200 µM
C[C@@H](Cn1cnc2c(=O)[nH]c(N)nc21)OCP(=O)(O)O,-,cytopathic effect,1.3 µM
O=c1[nH]c(=O)n([C@H]2C[C@H](O)[C@@H](CO)O2)cc1/C=C/Br,07 (TK-),cytopathic effect,>150 µM
O=c1[nH]cnc2c1ncn2[C@@H]1O[C@H](CO)[C@H]1CO,TK+/YS,plaque count,89 µg/mL
CCCCCOc1ccc(-c2cc3cn([C@H]4C[C@H](O)[C@@H](CO)O4)c(=O)nc3o2)cc1,YS/R (TK-),cytopathic effect,>50 µM
OC[C@H]1O[C@H](c2cc(I)c(F)cc2F)C[C@@H]1O,(TK-)/YS/R,plaque count,>200 µM
Nc1nc2c(ncn2C[C@@H](CO)OCP(=O)(O)O)c(=O)[nH]1,-,cytopathic effect,0.007 µM
CC(C)Nc1ncnc2c1ncn2C1C[C@H](CO)[C@@H](CO)C1,YS,-,>100 µg/mL
Cc1cc([C@@H]2C[C@H](O)[C@@H](CO)O2)c(F)cc1Cl,(TK+)/OKA,plaque count,>200 µM
O=c1[nH]c(=O)c2ncn([C@@H]3O[C@H](CO)[C@H]3CO)c2[nH]1,TK+/YS,plaque count,151.3 µg/mL
O=C(O)CP(=O)(O)O,Oka BVDU-resistant,cytopathic effect,59.3 µM
Nc1ncnc2c1ncn2C[C@@H](CO)OCP(=O)(O)O,YS,cytopathic effect,0.004 µg/mL
Cc1cc([C@H]2C[C@H](O)[C@@H](CO)O2)c(Cl)cc1F,(TK-)07/1,plaque count,>200 µM
Nc1nc2c(ncn2CCC(CO)CO)c(=O)[nH]1,Clinical isolate VZV-21,cytopathic effect,1.9 µM
CCCCCOCCCCc1cc2cn([C@H]3C[C@H](O)[C@@H](CO)O3)c(=O)nc2o1,YS/R (TK-),plaque count,>50 µM
O=C(O)CP(=O)(O)O,YS-W1 H13,plaque count,7 µg/mL
Nc1ccn(C[C@@H](CO)OCP(=O)(O)O)c(=O)n1,Oka penciclovir-resistant/A,cytopathic effect,0.2 µM
Cc1cc([C@H]2C[C@H](O)[C@@H](CO)O2)c(F)cc1Cl,(TK-)07/1,plaque count,>200 µM
Nc1nc2c(ncn2[C@H]2CCC[C@H]2CO)c(=O)[nH]1,YS/R (TK-),plaque count,>50 µg/mL
CCCCCCCCCCc1cc2cn([C@H]3C[C@H](O)[C@@H](CO)O3)c(=O)nc2o1,YS/R (TK-),plaque count,>50 µM
O=c1ccn([C@@H]2C[C@H](CO)C[C@H]2CO)c(=O)[nH]1,OKA,-,>100 µg/mL
Nc1ncnc2c1ncn2C[C@H](CO)OCP(=O)(O)O,-,cytopathic effect,2 µM
Nc1nc(N)c2ncn([C@H]3CCC[C@H]3CO)c2n1,07/1 (TK-),plaque count,>50 µg/mL
O=c1ccn([C@@H]2O[C@H](/C=C/C=C(Br)Br)[C@@H](O)[C@H]2O)c(=O)[nH]1,OKA,-,>120 µM
O=c1nc2oc(-c3ccc(Br)cc3)cc2cn1[C@H]1C[C@H](O)[C@@H](CO)O1,YS,cytopathic effect,0.1 µM
OC[C@H]1O[C@H](c2cc(Br)c(F)cc2F)C[C@@H]1O,(TK-)/YS/R,plaque count,>200 µM
Nc1nc2c(ncn2C[C@@H](CF)OCP(=O)(O)O)c(=O)[nH]1,-,cytopathic effect,≥300 µM
Cc1ccn2c(C3OCCO3)cnc2c1,YS,-,>1000 µM
N#Cc1cc([C@H]2C[C@H](O)[C@@H](CO)O2)c(F)cc1F,(TK-)/YS/R,plaque count,>200 µM
NC1=NS(=O)(=O)N(Cc2ccccc2)c2nc[nH]c21,YS/R (TK-),plaque count,>50 µg/mL
Cc1ccn2c(C(SCCc3ccccc3)SCCc3ccccc3)cnc2c1,Strain 07/1,-,>1000 µM
Nc1nc2c(ncn2COCCO)c(=O)[nH]1,YS,cytopathic effect,0.2 µg/mL
Nc1nc(N)c2ncn(C[C@H]3CCC[C@H]3CO)c2n1,YS/R (TK-),plaque count,>50 µg/mL
Nc1nc(N)c2ncn(C[C@H](CF)OCP(=O)(O)O)c2n1,-,cytopathic effect,>100 µM
Cc1cccn2c(C3SCCS3)cnc12,Strain 07/1,-,>1000 µM
Nc1ncnc2c1ncn2C[C@@H](CO)OCP(=O)(O)O,-,cytopathic effect,0.49 µM
Nc1nc(N)c2ncn([C@@H]3O[C@H](CO)[C@H]3CO)c2n1,(TK-)/YS/R,plaque count,5.2 µg/mL
OC[C@H]1O[C@@H](c2cc(F)c(F)cc2F)C[C@@H]1O,(TK+)/OKA,plaque count,>200 µM
Cc1ccn2c(C3SCCS3)cnc2c1,YS,-,>1000 µM
O=c1nc2oc(CCCC3OCCCO3)cc2cn1[C@H]1C[C@H](O)[C@@H](CO)O1,YS,plaque count,>200 µM
COC(=O)C(C)(C)NP(=O)(OC[C@H]1O[C@@H](n2cc(/C=C/Br)c(=O)[nH]c2=O)C[C@@H]1O)Oc1ccccc1,OKA,cytopathic effect,11 µM
CCCCOc1ccc(-c2cc3cn([C@H]4C[C@H](O)[C@@H](CO)O4)c(=O)nc3o2)cc1,YS/R (TK-),cytopathic effect,>50 µM
CC(=O)OCCOCN1c2nc(Cc3ccccc3)[nH]c2C(N)=NS1(=O)=O,YS/R (TK-),plaque count,>50 µg/mL
Cc1cc([C@@H]2C[C@H](O)[C@@H](CO)O2)c(Cl)cc1F,(TK+)/OKA,plaque count,>200 µM
Nc1ccn([C@@H]2O[C@H](CO)[C@@H](O)[C@@H]2O)c(=O)n1,YS-V10 H12,plaque count,0.2 µg/mL
O=C(O)P(=O)(O)O,Clinical isolate VZV-22,cytopathic effect,76.9 µM
O=c1nc2oc(CCCC3OCCO3)cc2cn1[C@H]1C[C@H](O)[C@@H](CO)O1,YS/R (TK-),plaque count,>200 µM

Repeating the final 4 entries:

structure,strain,read by,result
Cc1cc([C@@H]2C[C@H](O)[C@@H](CO)O2)c(Cl)cc1F,(TK+)/OKA,plaque count,>200 µM
Nc1ccn([C@@H]2O[C@H](CO)[C@@H](O)[C@@H]2O)c(=O)n1,YS-V10 H12,plaque count,0.2 µg/mL
O=C(O)P(=O)(O)O,Clinical isolate VZV-22,cytopathic effect,76.9 µM
O=c1nc2oc(CCCC3OCCO3)cc2cn1[C@H]1C[C@H](O)[C@@H](CO)O1,YS/R (TK-),plaque count,>200 µM